Results from patent publication US9487749B2 (priority 2009, dated 2016).
The amount applied is not stated for every result.

System: pasture grass mix
Assay: Effect of MSM on grass growth and nutrient value
Type: in vivo
Settings: MSM 1:500, Dry basis

## CS(C)(=O)=O [MSM, Methylsulfonylmethane]
AOAC 923.01
  Sulfur: 0.25%
AOAC 2001.11
  Crude Protein: 24.36%
AOAC 2002.04
  Neutral Detergent Fiber: 35.23%
Calculation
  Non Structural Carbo: 25.66%
